Results of unrelated studies side by side (data: NIAID ChemDB).

All rows: enzyme or target tests

Lines come from different laboratories, so protocols vary.

compound | tested at | organism | target | strain | mutations | read-out | read by | value
CCN(CC)CCN1CCn2c(nc(C(=O)NCc3ccc(F)cc3)c(O)c2=O)C1(C)C |  | HIV-1 | Integrase |  |  | IC50 | ELISA | <10 µM
Nc1cc2c(c(N3CCOCC3)c1)CCN(c1nn3c(C4CC4)nnc3c3ccccc13)C2 |  | HIV-1 | Reverse transcriptase | IIIB |  | IC90 | RT activity / fluorescence | 85.2 µM
Nc1ccn([C@H]2CC[C@@H](COP(=O)(O)OP(=O)(O)OP(=O)(O)O)O2)c(=O)n1 |  | HIV | Reverse transcriptase |  | RT-V77I F116Y Q151M | IC50 | nucleotide incorporation / radiometric | 3.9 µM
c1csc(-c2nnc3c4ccccc4c(N4CCc5ccccc5C4)nn23)c1 |  | HIV-1 | Reverse transcriptase | IIIB |  | IC90 | RT activity / fluorescence | >100 µM
CC(C)C(=O)c1cn2ccn(Cc3ccc(F)cc3)c(=O)c2c(O)c1=O |  | HIV-1 | Integrase |  |  | IC50 | ELISA | <0.01 µM
CC(C)C(CO)NC(=O)[C@@H]1CSCN1C(=O)[C@@H](O)[C@H](Cc1ccccc1)NC(=O)[C@H](CS(C)(=O)=O)NC(=O)COc1cccc2ccccc12 | 0.05 µM | HIV-1 | Protease |  |  | inhibition |  | 80.7%
NC(=O)c1cc(S(=O)(=O)Nc2nc3ccccc3c(=O)[nH]2)c(SCOc2ccccc2)cc1Cl |  | HIV | Integrase |  |  | IC50 | strand transfer | >100 µM
CSCC[C@H](NC(=O)[C@@H]1CCCN1C(=O)[C@H](Cc1cnc[nH]1)NC(=O)[C@H](Cc1c[nH]c2ccccc12)NC(=O)[C@@H](N)Cc1ccccc1)C(=O)N[C@@H](Cc1cnc[nH]1)C(=O)N[C@@H](CC(=O)O)C(=O)O |  | HIV-1 | gp120 | HXB2 |  | IC50 | ELISA | >500 µM
O=C(NCc1ccc(F)cc1)c1nc2n(c(=O)c1O)CCNC2 |  | HIV-1 | Integrase |  |  | IC50 | ELISA | <10 µM
CCN(C)C(=O)c1cc(=O)c(O)c2n1CCN(Cc1ccc(Cl)c(Cl)c1)C2=O |  | HIV-1 | Integrase |  |  | IC50 | ELISA | <0.01 µM
CCNC(=O)N1CCn2c(nc(C(=O)NCc3ccc(F)cc3)c(O)c2=O)C1(C)C |  | HIV-1 | Integrase |  |  | IC50 | ELISA | <10 µM
CS(=O)(=O)C[C@H](NC(=O)COc1cccc2ccccc12)C(=O)N[C@@H](Cc1ccccc1)[C@H](O)C(=O)N1CSC[C@H]1C(=O)NCCCC(N)=O |  | HIV-1 | Protease |  |  | IC50 |  | >0.05 µM
CN1CCN(c2cc(N)cc3c2CCN(c2nn4c(C5CC5)nnc4c4ccccc24)C3)CC1 |  | HIV-1 | Reverse transcriptase | 98US_MSC5016 |  | IC50 | RT activity / fluorescence | 16.4 µM
CCCN(C[C@H](O)CN1C[C@H]2CCCC[C@H]2C[C@H]1C(=O)NC(C)(C)C)S(=O)(=O)c1ccc(N)cc1 |  | HIV | Protease |  |  | IC50 |  | 0.47 µM
Cc1nnc2c3c(c(N4CCc5ccccc5C4)nn12)C1CCC3CC1 |  | HIV-1 | Reverse transcriptase | KER2008 |  | IC90 | RT activity / fluorescence | 9.27 µM
CC(C)(C)NC(=O)[C@@H]1CCCN1C(=O)[C@@H](O)[C@H](Cc1ccccc1)NC(=O)[C@H](CS(C)(=O)=O)NC(=O)COc1ccc2ccccc2c1 |  | HIV-1 | Protease |  |  | IC50 |  | <0.05 µM
CC(=O)Nc1ccc2c(c1)CN(c1nn3c(C)nnc3c3ccccc13)CC2 |  | HIV-1 | Reverse transcriptase | KER2008 |  | IC50 | RT activity / fluorescence | 7.36 µM
CC(=O)c1ccc(O)c2nc(/C=C/c3cc(O)c(O)c([N+](=O)[O-])c3)ccc12 |  | HIV | Integrase | HXB2 |  | IC50 | 3′ processing / gel | 0.225 µM
O=C(NCc1ccc(F)cc1)c1nc2n(c(=O)c1O)CCN(C(=O)C(F)(F)F)C2 |  | HIV-1 | Integrase |  |  | IC50 | ELISA | <10 µM
Nc1ncnc2c1ncn2[C@H]1CC[C@@H](COP(=O)(O)OP(=O)(O)OP(=O)(O)O)O1 |  | HIV | Reverse transcriptase |  | RT-V75I F77L F116Y Q151M | IC50 | nucleotide incorporation / radiometric | 71 µM
COc1ccc(S(=O)(=O)N(CC2CCCCC2)C[C@H](O)CN2C[C@H]3CCCC[C@H]3C[C@H]2C(=O)NC(C)(C)C)cc1 |  | HIV | Protease |  |  | IC50 |  | 3.74 µM
Cc1nnc2c3ccccc3c(N3CCc4ccc(C(=O)O)cc4C3)nn12 |  | HIV-1 | Reverse transcriptase | 98US_MSC5016 |  | IC90 | RT activity / fluorescence | 71.6 µM
Cc1cc(S(=O)(=O)Nc2nc(=O)c3ccccc3n2C)c(SCOc2ccccc2)cc1Cl |  | HIV | Integrase |  |  | IC50 | strand transfer | 90 µM
CC(C)(C)OC(=O)N[C@@H](CC(N)=O)C(=O)N[C@@H](Cc1ccccc1)[C@H](O)C(=O)NCC1CCCCC1 | 1000 µM | HIV-1 | Protease |  |  | inhibition |  | 47.1%
CC(C)COCc1cc(=O)c(O)c2n1CCN(Cc1ccc(Cl)c(Cl)c1)C2=O |  | HIV-1 | Integrase |  |  | IC50 | ELISA | 0.01–0.1 µM
CC(C)(C)OC(=O)N[C@@H](Cc1ccccc1)[C@H](O)C(=O)N1CCC[C@H]1C(=O)N[C@@H](CCC(N)=O)C(=O)NCC1CCCCC1 |  | HIV-1 | Protease |  |  | IC50 |  | >1000 µM
CCCN(C[C@H](O)CN1C[C@H]2CCCC[C@H]2C[C@H]1C(=O)NC(C)(C)C)S(=O)(=O)c1cccc(N)c1 |  | HIV | Protease |  |  | IC50 |  | 49.87 µM
CN1CCn2c(nc(C(=O)NCc3ccc(F)cc3)c(O)c2=O)C(N(C)C(=O)C(=O)N(C)C)C1 |  | HIV-1 | Integrase |  |  | IC50 | ELISA | <10 µM
CC(C)CN(C[C@H](O)CN1C[C@H]2CCCC[C@H]2C[C@H]1C(=O)NC(C)(C)C)S(=O)(=O)c1cccc([N+](=O)[O-])c1 |  | HIV | Protease |  |  | IC50 |  | >200 µM
CC(=O)c1ccc(O)c2nc(/C=C/c3cc(O)c(O)c(Cl)c3)ccc12 |  | HIV | Integrase | HXB2 |  | IC50 | strand transfer / gel | 0.53 µM
COc1ccc(S(=O)(=O)N(CCc2ccccc2)C[C@H](O)CN2C[C@H]3CCCC[C@H]3C[C@H]2C(=O)NC(C)(C)C)cc1 |  | HIV | Protease |  |  | IC50 |  | 4.88 µM
O=C(Cc1cccnc1)Nc1cn2ccn(Cc3cccc(Cl)c3)c(=O)c2c(O)c1=O |  | HIV-1 | Integrase |  |  | IC50 | ELISA | <0.01 µM
COc1ccc(S(=O)(=O)N(CC(C)C)C[C@H](O)CN2C[C@H]3CCCC[C@H]3C[C@H]2C(=O)NC(C)(C)C)cc1 |  | HIV | Protease |  |  | IC50 |  | 13.83 µM
CC(C)(C)NC(=O)[C@@H]1CC2CCCCC2N1C(=O)[C@@H](O)[C@H](Cc1ccccc1)NC(=O)[C@H](CS(C)(=O)=O)NC(=O)COc1cccc2ccccc12 | 0.05 µM | HIV-1 | Protease |  |  | inhibition |  | 2.5%

5 of the rows above, restated:

compound | tested at | organism | target | strain | mutations | read-out | read by | value
CCCN(C[C@H](O)CN1C[C@H]2CCCC[C@H]2C[C@H]1C(=O)NC(C)(C)C)S(=O)(=O)c1ccc(N)cc1 |  | HIV | Protease |  |  | IC50 |  | 0.47 µM
COc1ccc(S(=O)(=O)N(CC(C)C)C[C@H](O)CN2C[C@H]3CCCC[C@H]3C[C@H]2C(=O)NC(C)(C)C)cc1 |  | HIV | Protease |  |  | IC50 |  | 13.83 µM
Cc1nnc2c3ccccc3c(N3CCc4ccc(C(=O)O)cc4C3)nn12 |  | HIV-1 | Reverse transcriptase | 98US_MSC5016 |  | IC90 | RT activity / fluorescence | 71.6 µM
CN1CCN(c2cc(N)cc3c2CCN(c2nn4c(C5CC5)nnc4c4ccccc24)C3)CC1 |  | HIV-1 | Reverse transcriptase | 98US_MSC5016 |  | IC50 | RT activity / fluorescence | 16.4 µM
CC(=O)Nc1ccc2c(c1)CN(c1nn3c(C)nnc3c3ccccc13)CC2 |  | HIV-1 | Reverse transcriptase | KER2008 |  | IC50 | RT activity / fluorescence | 7.36 µM

a–b is a range or a potency band. Percent inhibition refers to the dose given; in toxicity tests it is the harm to the cells. ICn: concentration for n% inhibition. An empty or dashed field is not shown.